Results deposited as PubChem BioAssay AID1259414 (Drosophila RNAi Screening Center, 2018)
The screen tested about 24,000 reagents; this is an unselected part of those that have a named target and a result. Over the whole deposit, about 1,210 (5%) are marked active. 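Inactive calls also include excluded dsRNAs with several or no targets, genes unexpressed in JW18, and well A1, regardless of score.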 A number with no mark means an inactive call. Reagents against one gene are numbered here. A plus sign joins genes that one reagent is predicted to hit.

- Screen: 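Genome-wide screen for host control of endosymbiont load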 (primary screen)
- System: Drosophila JW18 cells infected with Wolbachia
- Reagents: long dsRNA against Drosophila genes, 0.25 µg dsRNA per well of a 384-well plate
- Time to read-out: 5 days
- Challenge: cells persistently infected with Wolbachia before knock-down; no added drug
- Detection: 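Imaged fluorescence in situ signal for Wolbachia 23S rRNA per DAPI-counted host cell, given as a robust z-score within each plate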
- Scale: Wolbachia per cell robust z: higher = more Wolbachia per host cell than the plate typical
- Hit rule: 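Active if absolute robust z reaches 1.5 in two or more of three replicates, leaving out multi- or no-target dsRNAs, genes unexpressed in JW18 and A1 wells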

mRpL38 #1: Wolbachia per cell robust z, rep 1 = 0.55; Wolbachia per cell robust z, rep 2 = -0.0268; Wolbachia per cell robust z, rep 3 = 0.147
mRpL38 #2: Wolbachia per cell robust z, rep 1 = -0.361; Wolbachia per cell robust z, rep 2 = 0.0437; Wolbachia per cell robust z, rep 3 = -1.82
Spn88Eb: Wolbachia per cell robust z, rep 1 = -0.198; Wolbachia per cell robust z, rep 2 = -5.98; Wolbachia per cell robust z, rep 3 = 1.27
CG34376 #1: Wolbachia per cell robust z, rep 1 = -1.12; Wolbachia per cell robust z, rep 2 = 0.0992; Wolbachia per cell robust z, rep 3 = -1.13
CG34376 #2: Wolbachia per cell robust z, rep 1 = 0.355; Wolbachia per cell robust z, rep 2 = -0.162; Wolbachia per cell robust z, rep 3 = -0.623
CG34376 #3: Wolbachia per cell robust z, rep 1 = -0.126; Wolbachia per cell robust z, rep 2 = 0.248; Wolbachia per cell robust z, rep 3 = 0.895
CG34376 #4: Wolbachia per cell robust z, rep 1 = 0.0023; Wolbachia per cell robust z, rep 2 = 0.347; Wolbachia per cell robust z, rep 3 = 1.55
CG14974: Wolbachia per cell robust z, rep 1 = 0.723; Wolbachia per cell robust z, rep 2 = 0.478; Wolbachia per cell robust z, rep 3 = 0.693
BaraA1 + BaraA2: Wolbachia per cell robust z, rep 1 = 0.971; Wolbachia per cell robust z, rep 2 = -0.892; Wolbachia per cell robust z, rep 3 = 0.147
rempA: Wolbachia per cell robust z, rep 1 = -0.246; Wolbachia per cell robust z, rep 2 = 1.72; Wolbachia per cell robust z, rep 3 = 0.479
CG31778: Wolbachia per cell robust z, rep 1 = -0.6; Wolbachia per cell robust z, rep 2 = 0.115; Wolbachia per cell robust z, rep 3 = -1.83
lic #1: Wolbachia per cell robust z, rep 1 = -5.32 (active); Wolbachia per cell robust z, rep 2 = -8.62; Wolbachia per cell robust z, rep 3 = 0.48
lic #2: Wolbachia per cell robust z, rep 1 = -1.74; Wolbachia per cell robust z, rep 2 = -1.04; Wolbachia per cell robust z, rep 3 = -1.52
CG43894 #1: Wolbachia per cell robust z, rep 1 = 0.307; Wolbachia per cell robust z, rep 2 = 0.749; Wolbachia per cell robust z, rep 3 = 0.202
CG43894 #2: Wolbachia per cell robust z, rep 1 = 1.41; Wolbachia per cell robust z, rep 2 = 1.31; Wolbachia per cell robust z, rep 3 = 0.559
CG43894 #3: Wolbachia per cell robust z, rep 1 = -0.51; Wolbachia per cell robust z, rep 2 = -1.48; Wolbachia per cell robust z, rep 3 = -2.14
CG11099 + CG13869: Wolbachia per cell robust z, rep 1 = 0.582; Wolbachia per cell robust z, rep 2 = 0.0247; Wolbachia per cell robust z, rep 3 = 0.477
Gyc32E #1: Wolbachia per cell robust z, rep 1 = 0.412; Wolbachia per cell robust z, rep 2 = 0.918; Wolbachia per cell robust z, rep 3 = 0.606
Gyc32E #2: Wolbachia per cell robust z, rep 1 = 0.127; Wolbachia per cell robust z, rep 2 = 0.515; Wolbachia per cell robust z, rep 3 = 0.431
Nnf1a: Wolbachia per cell robust z, rep 1 = 0.167; Wolbachia per cell robust z, rep 2 = -0.292; Wolbachia per cell robust z, rep 3 = -0.254
Polr2B: Wolbachia per cell robust z, rep 1 = 3.6 (active); Wolbachia per cell robust z, rep 2 = 3.26; Wolbachia per cell robust z, rep 3 = 1.12
Pex19: Wolbachia per cell robust z, rep 1 = -0.651; Wolbachia per cell robust z, rep 2 = -10.4; Wolbachia per cell robust z, rep 3 = -0.573
BG642163 #1: Wolbachia per cell robust z, rep 1 = -1.45; Wolbachia per cell robust z, rep 2 = 0.742; Wolbachia per cell robust z, rep 3 = 0.65
BG642163 #2: Wolbachia per cell robust z, rep 1 = 0.346; Wolbachia per cell robust z, rep 2 = 0.607; Wolbachia per cell robust z, rep 3 = 0.592
